How the values were obtained:
[1] = target: T1, ricin toxin (Ricinus communis, UniProt P02879 36-302; P02879 315-576); experiment: ELISA / biolayer interferometry (FIG. 5)
[2] = target: T1, ricin toxin; experiment: ELISA, ricin-coated plate (FIG. 5A)
[3] = target: T1, ricin toxin; experiment: cell-based or functional assay

Row | Binder | binding result [1] | PD50 (ng/ml), in vitro neutralization of ricin (30 ng/ml) in HeLa Ub-FL cells [3] | other results
1 | MH49 (antibody, V domains shown) VH: EAQLEESGPGLVKPSETLSLSCAVSGGSFRSYWWGWIRQPPGKGLEWIGSIYGSSGSTEYNPSLKSRATISRDTSKNQFSLKLSSVTAADTAVYYCARQIQFLTDAFDFWGQGLRVTVSS VL: QPGLTQPPSASGAPGQSVTISCSGSSSDIGSHDVYWYQQLPGTAPKLLIYYSNQRPSGVPDRISGSKSGTSASLTISGLRSEDEADYYCETWENSLSGPVFGGGTRLTVLA | binds |  | 
2 | MH67 (antibody, V domains shown) VH: QVQLEQSGPGLVKPSETLSLSCAVSGGSFRSYWWGWIRQPPGKGLEWIGSIYGSSGSTEYNPSLKSRATISRDTSKNQFSLKLSSVTAADTAVYYCARQIQFLTDAFDFWGQGLRVTASS VL: DIQLTQSPSSVSASVGDRVTITCRASQAISTYLAWYLQRPGKAPELLIYYATTLHTGVASGLTGSGSGTDFTLTLSALQPVDVGTYYCQQFKTLPYTFGQGTKVDIKA | binds |  | 
3 | MH74 (antibody, V domains shown) VH: EVQLVQSGAEVKRPGESLKISCKTSGYSFTSYWISWVRQMPGKGLEWMGAIDPTDSDTRYNPSFQGQVTISADKSISTAYLQWSRLKASDTATYYCAKSDWSDYYGNSLDVWGRGVLVTASS VL: QSVLTQPPSVSGAPGQRVTISCTGSNSNIGAGYYVQWYQQLPGTAPKLLIYENNKRPSGVSDRFSGSKSGTSASLTITGLQSEDEADYYCQSYDSSLSVVLFGGGTRLTVLA | binds |  | 
4 | MH2 (antibody, V domains shown) VH: EVQLVESGGGLAKPGGSLRLSCAASGFTFSDYYMDWVRQAPGKGLEWVSRISNGGGSKWYADSVKGRFTISRENAKNTLYLQMNSLRAEDTAVYYCAEVPTGYSQGVWGPGVLFTVSS VL: QSVLTQPQSVSVSPGQTARISCGGDNIGSKNVHWYQQKPPQAPVLVIYAGTERPSGIPERFSGSNSGNTATLTISGVEAGDEADYYCQVWDGTREHVLFGGGTRLTVLA |  |  | binding result [2]: binds
5 | MH77 (antibody, V domains shown) VH: QVQLLESGPGLVKPSETLSLTCTVSGGSFSSSHWWNWIRQAPGKGLEWIGYITTSNGATYYNPSLKSRVTISTDTSKNQFSLKLSSVTAADSAVYFCARGYSNWDNWFDVWGPGVLVTVSS VL: DIQMSQSPSSLSASVGDKVTITCQASQSVSSWLAWYRQKPGKAPKPLIYKASSLEGGVPSRFSGSGSGTDFTLTINSLQPEDFATYYCQQYNSVPYSFGHGTKVDIKA |  | 600 ng/mL | 
6 | MH1 (antibody, V domains shown) VH: QLQLQESGPGLVKPSETLSLTCAVSGGSISGGYGWGWIRQPPGKGLEWVGSIYGSTGNTYYNPSLKSRVTISTDTSKNQLSLKVSSVTAADTAIYYCARARSGTLWFLEFWGQGAPVTASS VL: QPVLTQPRSVSVSPGQTARITCGGDNIGSKSVQWYQQKPPQAPVLVIYADSERPSGIPERFSGSNSGNTATLTVSGVEAGDEADYYCQVWDSSSDHVLFGGGTRLTVLA |  | 620 ng/mL | 
7 | MH75 (antibody, V domains shown) VH: QEQLVQSGGGLAKPGGSLRLSCADSGFTFSDHYMDWVRQAPGKGLEWVSRISTGGGTTWYADSVKGRFTISRENANNTLYLQMNSLRGEDTAVYYCAKVPTGYSQGVWGQGVLVTASS VL: QSVLTQPQSVSVSPGQTARITCGGDNIGSKNVHWYQQKPPQAPVLVIYAETERPSGIPERFSGSNSGNTATLTISGVEAGDEADYYCQVWDGSSAHVLFAGGTRLTVLA |  | 180 ng/mL | 
8 | MH36 (antibody, V domains shown) VH: EVQLVESGGGLVQPGGSLRLSCAASGFTFSNVWMNWVRQTPGKGLEWVARIKVKADGGTADYAASVKGRFTISRDDSKNTLYLQMNSLKTEDTAVYYCTTEEITVARYDYWGQGVLVTVSS VL: QSVLTQPPSASGAPGQSVTISCSGSSSNIRGNGVHWYQQLSGMAPKLLIYNNNQRPSGVPDRFSGSKSGTSASLAITGLQSEDEADYYCEAWDNSLSGGLFGGGTRLTVLA | binds |  | 
9 | MH73 (antibody, V domains shown) VH: QVQLQESGPGLVKPSETLSLTCAVSGGSLSSNYWSWIRQAPGKGLEWIGHIFGGGGGTDYNPSLKSRVTISTDTSKNQFSLKLSSLAAADTAVYYCARAAIMYPNRFDVWGPGVLVTASS VL: ELLMTQSPSSLSASVGDRVTISCRASQNIYSNLAWYQQKPGKTPKLLIYAASILQSGIPSRFSGSGSGTDYTLTITNLQPEDFGTYYCQQGFGIPYTFGQGTKVEFKA |  | 14200 ng/mL | 
10 | MH76 (antibody, V domains shown) VH: QVQLQESGGGLAKPGGSLRLSCAASGFTFSDYYMDWVRQAPGKGLDWVSRISNGGGTTWYADSVKGRFTISRENAKNTLYLQMNSLRPEDTAVYYCATVPTATSGIGNWGQGVLVTASS VL: QPGLTQPHSVSVSPGQTARITCGGDNIGSKNVHWYQQKPPQAPVLVIYADSERPSGIPERFSGSNSGNTATLTISGVEAGDEADYYCQVWDSSSNHVLFGGGTRLTV | binds |  | 
